{
  "source": "paper PMC5584973",
  "about": "“Characterization of novel bangle lectin from Photorhabdus asymbiotica with dual sugar-binding specificity and its effect on host immunity” (PLoS Pathogens, 2017)",
  "biological_target": "PHL (Photorhabdus asymbiotica, UniProt C7BLE4)",
  "test": "SPR inhibition of PHL binding to immobilized L-fucoside",
  "conditions": "from IC50",
  "method": "SPR inhibition experiments were performed using the same conditions described above. The PHL lectin (0.25 μM final concentration) was mixed with various concentrations of inhibitors (1M – 0.01 mM) and injected onto the sensor chip. Pure PHL lectin was used as a control (0% inhibition). The response of the lectin bound to the sugar surface at equilibrium was plotted against the concentration of inhibitor in order to determine IC50.",
  "note": "Certain results were filed several times, with different values. This is not the full list of results. The source may hold further records. Values that stand side by side do not match, cause unknown; they may come from other doses, times, organisms or constructs than stated.",
  "data": [
    {"smiles": "CO[C@@H]1O[C@@H](C)[C@@H](O)[C@@H](O)[C@@H]1O", "note": "[Me-α-L-Fuc, Methyl-α-L-fucopyranoside]", "values": [
      {"measurement": "Potency relative to L-Fuc", "result": "about 10 and 9.39"}
    ]}
  ]
}
